Pooled drug test results. Numbers come from NIAID ChemDB, via PubChem.

All rows: toxicity to cultured cells; cell line: HEL; measure: CC50

Neighbouring rows are from separate reports. CCn is the concentration with n% toxicity to the cells. Blank or dashed fields: not listed here.

structure	read by	value
O=c1ccn(C/C=C/c2ccccc2)c(=O)n1Cc1cc(F)cc(F)c1	MTT	51 µM
CCCOc1ccc(-c2cc3cn([C@H]4C[C@H](O)[C@@H](CO)O4)c(=O)nc3o2)cc1	-	>200 µM
COc1cc(/C=C/C(=O)CC(=O)/C=C/c2ccc(OCCOC(=O)CCC(NC(=O)c3ccc(NCc4cnc5nc(N)[nH]c(=O)c5n4)cc3)C(=O)O)c(OC)c2)ccc1O	MTS / tetrazolium / absorbance	>0.0119 µM
CCCCCCCOCCc1cc2cn([C@H]3C[C@H](O)[C@@H](CO)O3)c(=O)nc2o1	-	>200 µM
CC(C)C1NC(=O)N(C2CCCCC2)C1=O	MTT	>50 µg/mL
COC1(OC)CCC2(C)C(CCC3C2CCC2(COC(C)=O)C3CC(O)C23OC3C(OC(C)=O)C(C)C(C)C(C)(C)O)C1	MTT	>50 µg/mL
CCCCCCCCCCc1cc2cn(CCC)c(=O)nc2o1	-	>200 µM
O=C1NC(c2ccccc2)C(=O)N1C1CCCC1	MTT	27.4 µg/mL
CCCCCCCCc1cc2cn([C@H]3C[C@H](O)[C@@H](CO)O3)c(=O)nc2[nH]1	-	>50 µM
CCCCCCCCCCc1cc2cnc(OCc3ccc(C)cc3)nc2o1	-	>200 µM
CCCCCCCCc1cc2cn([C@H]3C[C@H](O)[C@@H](CO)O3)c(=O)nc2s1	-	53 µM
Cc1cc(Br)cc(Cn2c(=O)ccn(C/C=C/c3ccccc3)c2=O)c1	MTT	>100 µM
CCCCCCCCCCc1cc2cn(C3CCCO3)c(=O)nc2o1	-	>200 µM
Nc1nc2c(ncn2COC(CO)CO)c(=O)[nH]1	MTT	132 µM
CCCCCCCCCCc1cc2cnc(OCc3ccccc3)nc2o1	-	>200 µM
CCCCCCCCCCCc1cc2cn([C@H]3C[C@H](O)[C@@H](CO)O3)c(=O)nc2o1	-	>200 µM
CCCCCCCCCCc1cc2cnc(OCC3CCCCC3)nc2o1	-	>200 µM
C=C(C)[C@H]1C/C=C2\C(=O)O[C@H](C[C@@]3(C)CC(=O)[C@@H](CC(=O)C1)O3)[C@H]2O	MTT	1.9 µg/mL